Compound potency records, mixed from different reports. Data source: NIAID ChemDB in PubChem.

Common to all: growth or infection tests; organism: Candida tropicalis; read-out: MIC90

Blank or dashed fields: not listed here. Neighbouring rows are from separate reports. A number after MIC or MFC names an inhibition level or a share of isolates.

smiles | strain | method | setting | value
C=CCc1ccc(O)c(OC)c1 | 2557 | turbidity |  | 495 µg/mL
C/C(C=O)=C\c1ccccc1 | ATCC 750 | agar diffusion |  | 300 µM
c1ccc(C(c2ccccc2)n2cnc3ccccc32)cc1 |  | agar |  | >256 µg/mL
CCCCCOc1ccc(-c2cc(-c3ccc(C(=O)N[C@H]4C[C@@H](O)[C@@H](O)NC(=O)[C@@H]5[C@@H](O)[C@@H](C)CN5C(=O)[C@H]([C@H](O)CC(N)=O)NC(=O)[C@H]([C@H](O)[C@@H](O)c5ccc(O)c(OS(=O)(=O)O)c5)NC(=O)[C@@H]5C[C@@H](O)CN5C(=O)[C@H]([C@@H](C)O)NC4=O)cc3)no2)cc1 |  | broth dilution |  | 0.016 µg/mL
CCC(C)CC(C)CCCCCCCCC(=O)N[C@H]1C[C@@H](O)[C@H](NCCN)NC(=O)[C@@H]2[C@@H](O)CCN2C(=O)[C@H]([C@H](O)CCN)NC(=O)[C@H]([C@H](O)[C@@H](O)c2ccc(O)cc2)NC(=O)[C@@H]2C[C@@H](O)CN2C(=O)[C@H]([C@@H](C)O)NC1=O | 10 isolates |  |  | 0.4 µg/mL
Clc1ccc(C(Cn2ccnc2)OCc2csc3c(Cl)cccc23)c(Cl)c1 | 65 isolates | visual reading | 24 h | 4 µg/mL
C[C@@H](c1ncncc1F)[C@](O)(Cn1cncn1)c1ccc(F)cc1F |  | broth dilution |  | >4 µg/mL
Clc1ccc(C(c2ccccc2)n2ccnc2)cc1 |  | agar |  | 0.5 µg/mL
CC[C@@H]([C@H](C)O)n1ncn(-c2ccc(N3CCN(c4ccc(OC[C@@H]5CO[C@@](Cn6cncn6)(c6ccc(F)cc6F)C5)cc4)CC3)cc2)c1=O |  | broth dilution |  | 0.5 µg/mL
O=C(c1ccccc1)C(c1ccccc1)n1nnc2ccccc21 |  | agar |  | >256 µg/mL
CCC(C)n1ncn(-c2ccc(N3CCN(c4ccc(OC[C@H]5CO[C@](Cn6cncn6)(c6ccc(Cl)cc6Cl)O5)cc4)CC3)cc2)c1=O | 15 strains |  |  | 0.25 µg/mL
O=C(c1ccccc1)C(c1ccccc1)n1cnc2ccccc21 |  | agar |  | 64 µg/mL
CCC(C)CC(C)CCCCCCCCC(=O)N[C@H]1C[C@@H](O)[C@H](NCCN)NC(=O)[C@@H]2[C@@H](O)CCN2C(=O)[C@H]([C@H](O)CCN)NC(=O)[C@H]([C@H](O)[C@@H](O)c2ccc(O)cc2)NC(=O)[C@@H]2C[C@@H](O)CN2C(=O)[C@H]([C@@H](C)O)NC1=O |  | broth dilution |  | 4 µg/mL
c1ccc(C(c2ccccc2)n2ccnc2)cc1 |  | agar |  | 1 µg/mL
Nc1[nH]c(=O)ncc1F | 11 isolates |  |  | 0.5 µg/mL
CC(=O)N1CCN(c2ccc(OC[C@H]3CO[C@](Cn4ccnc4)(c4ccc(Cl)cc4Cl)O3)cc2)CC1 | 10 isolates |  |  | 0.4 µg/mL

A second listing of 2 rows from above:

smiles | strain | method | setting | value
O=C(c1ccccc1)C(c1ccccc1)n1nnc2ccccc21 |  | agar |  | >256 µg/mL
Nc1[nH]c(=O)ncc1F | 11 isolates |  |  | 0.5 µg/mL